Here are results for one substance from US5159061A (Takeda Chemical Industries, Ltd., priority 1986, dated 1992).

The nature of this series: general procedure: solution-phase peptide synthesis; HONB/DCC (ONB active esters). The note with it: oxidative folding step.

Strings that start with PEPTIDE1 are HELM notation: dots part the residues, brackets hold end groups and non-standard residues.

In turn, “PEPTIDE1{[Aib].C.F.G.G.R.I.D.R.I.G.A.Q.S.G.L.G.C.N.S.F.R.Y}$PEPTIDE1,PEPTIDE1,2:R3-18:R3$$$V2.0” gave an oxidative folding yield of 18%.
